The values that follow are results of earlier work, collected in patent publication EP0692191A1, “UTILIZATION OF PHENYL COMPOUNDS FOR THE CONTROL OF PHYTOPARASITE NEMATODES” (UNIVERSIDAD DE LA LAGUNA, priority 1993, dated 1995).

For the data set the following is noted: comparison values on the scale of Repeto; cited from earlier work.

Regarding CINa, the “toxisches Potential pT50” value was 1,35.
